This data set has as its target lethal toxin (PA + LF) (Bacillus anthracis, UniProt P13423). Briefly: Inhibition of lethal toxin (LT)-mediated cytolysis in bone-marrow macrophage cells, lactate dehydrogenase release assay.

The chains behind the UniProt entries cited, without tags or fusion partners. Where a name states a change or a piece, a line headed by the entry shows the natural chain unless it says otherwise.
UniProt P13423: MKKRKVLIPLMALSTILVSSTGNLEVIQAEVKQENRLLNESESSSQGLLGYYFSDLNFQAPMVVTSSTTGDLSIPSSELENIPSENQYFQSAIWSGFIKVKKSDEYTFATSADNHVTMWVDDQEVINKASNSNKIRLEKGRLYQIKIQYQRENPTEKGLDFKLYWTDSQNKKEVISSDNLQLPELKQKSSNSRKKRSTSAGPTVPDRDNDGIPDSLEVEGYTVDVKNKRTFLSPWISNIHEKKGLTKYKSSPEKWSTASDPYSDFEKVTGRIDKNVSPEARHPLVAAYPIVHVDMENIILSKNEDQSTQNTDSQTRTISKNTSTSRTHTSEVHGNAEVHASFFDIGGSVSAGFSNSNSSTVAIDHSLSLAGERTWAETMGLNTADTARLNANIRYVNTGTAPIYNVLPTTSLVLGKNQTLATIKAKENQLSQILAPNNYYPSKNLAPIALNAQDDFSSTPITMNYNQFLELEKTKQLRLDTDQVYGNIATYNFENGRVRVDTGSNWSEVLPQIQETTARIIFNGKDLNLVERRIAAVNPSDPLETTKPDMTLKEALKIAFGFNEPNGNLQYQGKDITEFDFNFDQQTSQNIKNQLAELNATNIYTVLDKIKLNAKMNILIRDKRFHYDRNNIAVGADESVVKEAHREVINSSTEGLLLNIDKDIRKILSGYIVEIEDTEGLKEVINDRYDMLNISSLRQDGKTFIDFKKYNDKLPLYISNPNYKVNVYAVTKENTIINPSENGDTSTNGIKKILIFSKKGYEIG

As for poly-γ-D-glutamic acid, the “inhibitory activity (LT-mediated cytotoxicity) after cleavage by Cap D” value (compound pretreated with Cap D) is “reversible by digestion with Cap D”. The “inhibit LT-mediated cytolysis in bone marrow macrophage cells” value (natively purified compounds) is on record as “not”.

(Values after patent publication US9463216B2 (priority 2012, dated 2016).)
